What was measured:
[1] = test system: rice sheath blight (Rhizoctonia solani Palo); experiment: Activity in vitro against rice sheath blight; assay type: cell-based
[2] = test system: pear scab (Fusicladium pirina); experiment: Activity in vitro against pear scab; assay type: cell-based
[3] = test system: cucumber gray mold (Botrytis cinerea); experiment: Activity in vitro, inhibition rate against cucumber gray mold; assay type: cell-based; details: for Inhibition rate against cucumber gray mold (%): Table 9; for inhibition rate against cucumber gray mold: dose 0.3 mg/L
[4] = test system: cucumber anthracnose (Colletotrichum lagenarium); experiment: Protectant activity in vivo against cucumber anthracnose; details: dose 400 mg/L
[5] = test system: cucumber downy mildew (Pseudoperonospora cubensis); experiment: Protectant activity in vivo against cucumber downy mildew; details: for Protectant activity (%) against cucumber downy mildew in vivo: Table 7
[6] = test system: rape sclertiniose (Sclerotinia sclerotiorum); experiment: Activity in vitro against rape sclertiniose; assay type: cell-based
[7] = test system: corn southern leaf blight (Helminthosporium maydis); experiment: Activity in vitro against corn southern leaf blight; assay type: cell-based
[8] = test system: corn rust (Puccinia sorghi); experiment: Protectant activity in vivo against corn rust; details: for Protectant activity (%) against corn rust in vivo: Table 8
[9] = test system: cucumber fusarium wilt (Fusarium oxysporum f. sp.); experiment: Activity in vitro against cucumber fusarium wilt; assay type: cell-based
[10] = test system: cotton verticillium wilt (Verticillium dahliae Kleb); experiment: Activity in vitro against cotton verticillium wilt; assay type: cell-based
[11] = test system: rice blast (Magnaporthe grisea); experiment: Activity in vitro, inhibition rate against rice blast; assay type: cell-based; details: for Inhibition rate against rice blast (%): Table 9
[12] = test system: cotton nthracnose (Colletotrichum gossypii Southw.); experiment: Activity in vitro against cotton anthracnose; assay type: cell-based

Cc1c(Cl)c([N+](=O)[O-])cc([N+](=O)[O-])c1Nc1c(Cl)cc([N+](=O)[O-])cc1Cl
Activity in vitro (%), rice sheath blight ([1]; 0.1 mg/L): 74% | Activity in vitro (%), rice sheath blight ([1]; 1 mg/L): 95% | Activity in vitro (%), rice sheath blight ([1]; 10 mg/L): 100% | Activity in vitro (%), pear scab ([2]; 0.1 mg/L): 87% | Activity in vitro (%), pear scab ([2]; 1 mg/L): 99% | Activity in vitro (%), pear scab ([2]; 10 mg/L): 100% | Inhibition rate against cucumber gray mold (%) ([3]; 0.03 mg/L): 50% | Inhibition rate against cucumber gray mold (%) ([3]; 0.1 mg/L): 100% | Inhibition rate against cucumber gray mold (%) ([3]; 0.3 mg/L): 100% | inhibition rate against cucumber gray mold [3]: 100% | protectant activity against cucumber anthracnose in vivo [4]: 100% | Protectant activity (%) against cucumber downy mildew in vivo ([5]; 3.125 mg/L): 90% | Protectant activity (%) against cucumber downy mildew in vivo ([5]; 12.5 mg/L): 100% | Protectant activity (%) against cucumber downy mildew in vivo ([5]; 50 mg/L): 100% | protectant activity against cucumber downy mildew in vivo ([5]; dose 12.5 mg/L): 100% | protectant activity against cucumber downy mildew in vivo ([5]; dose 50 mg/L): 100% | protectant activity against cucumber downy mildew in vivo ([5]; dose 100 mg/L): 100% | protectant activity against cucumber downy mildew in vivo ([5]; dose 400 mg/L): 100% | Activity in vitro (%), rape sclertiniose ([6]; 0.1 mg/L): 88% | Activity in vitro (%), rape sclertiniose ([6]; 1 mg/L): 100% | Activity in vitro (%), rape sclertiniose ([6]; 10 mg/L): 100% | Activity in vitro (%), corn southern leaf blight ([7]; 0.1 mg/L): 54% | Activity in vitro (%), corn southern leaf blight ([7]; 1 mg/L): 100% | Activity in vitro (%), corn southern leaf blight ([7]; 10 mg/L): 100% | protectant activity against corn rust in vivo ([8]; dose 100 mg/L): 100% | protectant activity against corn rust in vivo ([8]; dose 400 mg/L): 100% | Activity in vitro (%), cucumber fusarium wilt ([9]; 0.1 mg/L): 79% | Activity in vitro (%), cucumber fusarium wilt ([9]; 1 mg/L): 91% | Activity in vitro (%), cucumber fusarium wilt ([9]; 10 mg/L): 99% | Activity in vitro (%), cotton verticillium wilt ([10]; 0.1 mg/L): 82% | Activity in vitro (%), cotton verticillium wilt ([10]; 1 mg/L): 100% | Activity in vitro (%), cotton verticillium wilt ([10]; 10 mg/L): 100% | Inhibition rate against rice blast (%) ([11]; 0.03 mg/L): 80% | Inhibition rate against rice blast (%) ([11]; 0.3 mg/L): 100% | inhibition rate against rice blast ([11]; dose 0.03 mg/L): 80% | Activity in vitro (%), cotton nthracnose ([12]; 0.1 mg/L): 94% | Activity in vitro (%), cotton nthracnose ([12]; 1 mg/L): 100% | Activity in vitro (%), cotton nthracnose ([12]; 10 mg/L): 100%

Cc1c(Cl)c([N+](=O)[O-])cc([N+](=O)[O-])c1Nc1c(Cl)cc(Cl)cc1[N+](=O)[O-]
Inhibition rate against cucumber gray mold (%) ([3]; 0.03 mg/L): 0% | Inhibition rate against cucumber gray mold (%) ([3]; 0.1 mg/L): 50% | Inhibition rate against cucumber gray mold (%) ([3]; 0.3 mg/L): 80% | inhibition rate against cucumber gray mold [3]: 80% | Protectant activity (%) against cucumber downy mildew in vivo ([5]; 3.125 mg/L): 65% | Protectant activity (%) against cucumber downy mildew in vivo ([5]; 12.5 mg/L): 80% | Protectant activity (%) against cucumber downy mildew in vivo ([5]; 50 mg/L): 100% | protectant activity against cucumber downy mildew in vivo ([5]; dose 50 mg/L): 100% | protectant activity against cucumber downy mildew in vivo ([5]; dose 100 mg/L): 100% | protectant activity against cucumber downy mildew in vivo ([5]; dose 400 mg/L): 100% | Protectant activity (%) against corn rust in vivo ([8]; 6.25 mg/L): 0% | Protectant activity (%) against corn rust in vivo ([8]; 25 mg/L): 20% | Protectant activity (%) against corn rust in vivo ([8]; 100 mg/L): 70% | protectant activity against corn rust in vivo ([8]; dose 400 mg/L): 100%

Cc1c(Cl)c([N+](=O)[O-])cc([N+](=O)[O-])c1Nc1c([N+](=O)[O-])cc(C(F)(F)F)c(Cl)c1[N+](=O)[O-]
protectant activity against cucumber downy mildew in vivo ([5]; dose 100 mg/L): 100% | protectant activity against cucumber downy mildew in vivo ([5]; dose 400 mg/L): 100% | protectant activity against corn rust in vivo ([8]; dose 400 mg/L): 100%
